Record: PubChem BioAssay AID504761 (Drosophila RNAi Screening Center, 2011)

Assay: 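Genome-wide fly cell screen for genes dengue virus requires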 (primary screen)
Cells: D.Mel-2 cells from Drosophila
Reagent: long dsRNA against Drosophila genes
Conditions: infection with dengue virus type 2; dose and infection time not stated
Read-out: 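Per well on two replicate plates, imaging gave the percent of cells positive for viral envelope protein, ranked by infection, and a nuclear count of cells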
Reading the numbers: infection score: higher = more virus-infected cells
Call rule: 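Low infection ranks in the two replicates (chance level up to 0.065) followed by a retest with a 1.5-fold or larger significant decrease, p below 0.05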
Meaning of the calls: active = confirmed: knock-down lowers infection; inactive = not picked or not confirmed
The deposit covers about 22,000 reagents; this is a random part of those that have a named target and a result. Over the whole deposit, 116 (0.52%) got an active call. 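Calls depend on retest data that are not deposited; infection was ranked per plate without normalising between plates; the unit of the infection score is not given.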 Further read-outs or replicates are left out here. Reagent sequences are not shown. Not given: the amount of reagent, the time to read-out.

| gene | dsRNA | infection score, replicate 1 | activity call |
| --- | --- | --- | --- |
| CG11110 | DRSC06037 | 5.21 | inactive |
| CG11110 | DRSC27355 | 4.57 | inactive |
| CG16970 (retired record) | DRSC02549 | 4.68 | inactive |
| CG16970 (retired record) | DRSC25187 | 2.21 | inactive |
| CanB2 | DRSC07355 | 12.9 | inactive |
| CanB2 | DRSC27440 | 4.75 | inactive |
| CG31174 | DRSC13518 | 0.21 | inactive |
| CG10863 | DRSC08145 | 5.1 | inactive |
| ENGase | DRSC19952 | 9.18 | inactive |
| ENGase | DRSC19953 | 1.81 | inactive |
| Map60 | DRSC07464 | 6.25 | inactive |
| Coq5 | DRSC19849 | 15.2 | inactive |
| Coq5 | DRSC21371 | 2.51 | inactive |
| Coq5 | DRSC29685 | 20.7 | inactive |
| pum | DRSC12726 | 4.92 | inactive |
| pum | DRSC17038 | 1.73 | inactive |
| pum | DRSC22758 | 1.79 | inactive |
| pum | DRSC22794 | 3.11 | inactive |
| pum | DRSC23430 | 10.3 | inactive |
| CG4911 | DRSC10456 | 7.33 | inactive |
| CG12935 | DRSC06248 | 10.3 | inactive |
| CG16896 | DRSC04284 | 29.1 | inactive |
| CG7115 | DRSC02000 | 5.24 | inactive |
| CG7115 | DRSC29878 | 9.05 | inactive |
| CG42450 | DRSC20022 | 1.34 | inactive |
| CG42450 | DRSC22751 | 1.01 | inactive |
| CG9863 | DRSC28491 | 8.28 | inactive |
| fd102C | DRSC17203 | 1.4 | inactive |
| fd102C | DRSC26567 | 8.31 | inactive |
| Cyp301a1 | DRSC07365 | 11.6 | inactive |
| IntS14 | DRSC00668 | 0.89 | inactive |
| CG9951 | DRSC11105 | 2.77 | inactive |
| CG4820 | DRSC15654 | 1.71 | inactive |
| Dhdds | DRSC17756 | 4.26 | inactive |
| Dhdds | DRSC29011 | 7.54 | inactive |
| sas | DRSC12631 | 4.17 | inactive |
| orb | DRSC23148 | 1.17 | inactive |
| CG8003 | DRSC10946 | 6.22 | inactive |
| CG15456 | DRSC20527 | 5.07 | inactive |
| spel1 | DRSC03617 | 4.61 | inactive |
| spel1 | DRSC29609 | 12.3 | inactive |
| PrBP | DRSC03189 | 4.24 | inactive |
| PrBP | DRSC25862 | 1.25 | inactive |
| SA2 | DRSC08385 | 3.72 | inactive |
| Vha36-1 | DRSC07098 | 35.4 | inactive |
| Vha36-1 | DRSC25624 | 0.45 | inactive |
| Neurl4 | DRSC10638 | 3.41 | inactive |
| CG12009 | DRSC08217 | 6.45 | inactive |
| CG12009 | DRSC26937 | 4.88 | inactive |
| CG10864 | DRSC14273 | 14.2 | inactive |
| Sgs5 | DRSC16862 | 1.67 | inactive |
| Polr2I | DRSC16832 | 35.8 | inactive |
| ash1 | DRSC11325 | 1.84 | inactive |
| eIF4E7 | DRSC17782 | 4.13 | inactive |
| eIF4E7 | DRSC18623 | 0.92 | inactive |
| CG17272 | DRSC15211 | 1.56 | inactive |
| l(2)k14505 | DRSC03106 | 15.9 | inactive |
| CG3557 | DRSC00614 | 4.32 | inactive |
